Measurements from PubChem BioAssay AID720542 (National Center for Advancing Translational Sciences (NCATS), 2013).
Only a part is listed here, and it is no random draw. The source made the active and inactive calls. Calls follow the shape of the dose curve; as a rule, active = well fitted inhibition curve with a large enough effect; inconclusive = small, poorly fitted or top-dose-only effect; inactive = no such curve, though single readings can be large or run the other way.

test system: Plasmodium falciparum AMA1 (3D7) - RON2 peptide interaction; test: qHTS for Inhibitors of AMA1-RON; Towards Development of Antimalarial Drug Lead: Primary Screen; details: AlphaScreen AMA1-biotinylated RON2 peptide binding; at 58.2 µM (top of the series) unless noted;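 also: 0% = vehicle wells and -100% = peptide control; nearly all actives have a fitted effect of over 45% in size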

SMILES | activity change, negative = inhibition
CN(C)CCOC(=O)C(O)(c1ccccc1)C1CCCCC1 (centres undefined) | inactive: -3.73%
Cc1cc(-c2cccc3ccccc23)c(C)cn1.O=[N+]([O-])c1cc([N+](=O)[O-])c(O)c([N+](=O)[O-])c1 | inactive: -3.99%
O=[N+]([O-])c1ccc(OP2(=O)COCCO2)cc1 (centres undefined) | inactive: 8.41%
Cc1c(C(c2ccc3c(c2)OCO3)c2c(C)n(C)n(-c3ccccc3)c2=O)c(=O)n(-c2ccccc2)n1C.O=[N+]([O-])c1cc([N+](=O)[O-])c(O)c([N+](=O)[O-])c1 | inactive: 11.7%
CP(=O)(Nc1ccc(SC(F)(F)F)cc1)Oc1ccc(F)cc1 (centres undefined) | inactive: 0%
CCOP(C)(=S)SCC(=O)NC(C)(CC)C(=O)O (centres undefined) | inactive: 21.9%
CP(=O)(Nc1ccc2c(c1)OCCO2)Oc1ccccc1 (centres undefined) | inactive: -10.3%
O=[N+]([O-])c1cc([N+](=O)[O-])c(C(F)(F)F)c([N+](=O)[O-])c1O | inactive: -2.56%
Cc1ccccc1NP(C)(=O)Nc1ccccc1C | inactive: 11.2%
CC(C)c1ccc(OP(C)(=O)Nc2ccc(SC(F)(F)F)cc2)cc1 (centres undefined) | inactive: 16.3%
CP(=O)(Nc1ccccc1F)Oc1ccccc1 (centres undefined) | inactive: 4.85%
O=C(OCCN1CCN(CCOCc2ccccc2)CC1)C(O)(c1ccccc1)c1ccccc1 | inactive: -15.8%
COc1ccc(OP(C)(=O)Nc2ccc(SC(F)(F)F)cc2)cc1 (centres undefined) | inactive: 3.58%
CCOC(=O)c1ccc(NP(C)(=O)Oc2ccc(F)cc2)cc1 (centres undefined) | inactive: -4.68%
CCN(CC)CCCOC(=O)C(O)(c1ccccc1)C1CCCCC1 (centres undefined) | inactive: -1.7%
Cc1c([N+](=O)[O-])cc([N+](=O)[O-])c(Br)c1[N+](=O)[O-] | inactive: -21.7%
CCCCCOc1ccc(NP(C)(=O)Oc2ccc(Cl)cc2Cl)cc1 (centres undefined) | inactive: 0%
CP(=O)(Nc1ccccc1)Oc1ccc(F)cc1 (centres undefined) | inactive: 11.8%
Cc1cc(C)cc(OP(C)(=O)Nc2cccc(C(F)(F)F)c2)c1 (centres undefined) | inactive: 7.03%
COc1ccc(OP(C)(=O)Nc2ccccc2Br)cc1 (centres undefined) | inactive: 4.68%
COc1ccccc1OP(C)(=O)Nc1ccc(C)c(C)c1 (centres undefined) | inactive: -2.25%
CP(=O)(OCCOc1ccccc1)OCCOc1ccccc1 | inactive: -1.4%

SMILES | activity change, negative = inhibition
CP(=O)(Nc1ccc(Cl)cc1Cl)Oc1ccccc1 (centres undefined) | inactive: 0%
CCCCCCCCCCCCCCCC1C[N+](C)(C)CCOP(C)(=O)O1 (centres undefined) | inactive: -5.06%
COc1ccccc1OP(C)(=O)Nc1ccc(Br)cc1 (centres undefined) | inactive: -0.872%
COc1ccc(OP(C)(=O)Nc2ccccn2)cc1 (centres undefined) | inactive: -4.03%
O=[N+]([O-])c1cc([N+](=O)[O-])c(Nc2ccccn2)c([N+](=O)[O-])c1 | inactive: -24.1%
Cc1c(NP(C)(=O)Oc2ccc(C(C)C)cc2)c(=O)n(-c2ccccc2)n1C (centres undefined) | inactive: -0.0937%
CCc1ccc(OP(C)(=O)O)cc1 | inactive: -3.42%
COc1ccccc1OP(C)(=O)Nc1ccc(C)cc1C (centres undefined) | inactive: -4.61%
CP(=O)(Nc1ccccn1)Oc1ccccc1 (centres undefined) | inactive: -12.9%
COc1ccc(OP(C)(=O)Nc2ccc(Br)cc2)cc1 (centres undefined) | inactive: -16.6%
CCN(CC)CC(O)COC(=O)C(O)(c1ccccc1)C1CCCCC1 (centres undefined) | inactive: -8.75%
CCc1ccc(OP(C)(=O)Nc2cccnc2)cc1 (centres undefined) | inactive: -10.1%
CP(=O)(Oc1ccccc1)N1CCOC1=O (centres undefined) | inactive: -1.98%
O=C(OCCCN1CCCC1)C(O)(c1ccccc1)C1CCCCC1 (centres undefined) | inactive: 2.51%
COc1ccccc1OP(C)(=O)Nc1c(C)n(C)n(-c2ccccc2)c1=O (centres undefined) | inactive: -8.1%
CP(=O)(Nc1ccc(Cl)cc1)Oc1ccc(F)cc1 (centres undefined) | inactive: 0%
CC(C)(C)c1ccc(OP(C)(=O)O)cc1 | inactive: -17.9%
COc1ccccc1OP(C)(=O)Nc1ccccc1Br (centres undefined) | inactive: 7.54%
CN(C)C(=O)c1c([N+](=O)[O-])cc([N+](=O)[O-])cc1[N+](=O)[O-] | inactive: 10%
Nc1ccc2c(ccc3cccnc32)n1.O=[N+]([O-])c1cc([N+](=O)[O-])c(O)c([N+](=O)[O-])c1 | inactive: -9.61%
CP(=O)(OC12CC3CC(CC(C3)C1)C2)OC12CC3CC(CC(C3)C1)C2 | inactive: -12.2%
CCOC(=O)c1ccc(NP(C)(=O)Oc2ccc(Cl)cc2)cc1 (centres undefined) | inactive: -0.696%
